Measured values from several laboratories, pooled; numbers as filed in NIAID ChemDB.

Shared fields: enzyme or target tests; species: HIV-1; protein: Reverse transcriptase

Blank or dashed fields: not listed here. a–b is a range or a potency band. ICn: concentration for n% inhibition. Neighbouring rows are from separate reports.

SMILES | read-out | mutations | strain | method | result
CC(C)(C)c1ccc(-n2nnnc2SCC(=O)Nc2ccc(NC(=O)c3cccc(O)c3)cc2Cl)c(Cl)c1 | IC50 | - | WT | PicoGreen / fluorescence | <1 µM
CCCc1ccc(-n2c(Br)nnc2SCC(=O)Nc2ccc(S(N)(=O)=O)cc2Cl)c2ccccc12 | IC50 | RT-Y188L | - | nucleotide incorporation / radiometric | >0.1 µM
CCN1c2ncc(CCOc3ccc(C(=O)N=c4ccccn4O)cc3C)cc2C(=O)N(C)c2cccnc21 | IC50 | RT-K103N Y181C | IIIB | nucleotide incorporation / radiometric | <0.05 µM
O=C(CSc1nnnn1-c1cc(C(F)(F)F)ccc1Cl)Nc1ccc(-c2ccc(OCCN3CCCCC3)cc2)c(F)c1Cl | IC50 | RT-K103 Y181C | - | PicoGreen / fluorescence | <1 µM
COC(=O)[C@@H](NC(=O)c1ccc(NC(=O)CSc2nnc(Br)n2-c2ccc(C3CC3)c3ccccc23)c(Cl)c1)C(C)C | IC50 | RT-Y188L | - | nucleotide incorporation / radiometric | 0.05–0.1 µM
Cc1cc(C)c(-n2c(SCC(=O)Nc3ccc(S(N)(=O)=O)cc3Cl)nnc2C(F)(F)F)c2c1CCCC2 | IC50 | - | - | nucleotide incorporation / radiometric | <0.05 µM
CC(C)(C#Cc1ccc(NC(=O)CSc2nnnn2-c2ccc(C3CC3)cc2Cl)c(Cl)c1F)OCCN1CCCC1 | IC50 | RT-K103 Y181C | - | PicoGreen / fluorescence | <1 µM
CCc1ccc(-n2c(Br)nnc2SCC(=O)Nc2ccc(C(=O)O)cc2C)c2ccccc12 | IC50 | RT-Y188L | - | nucleotide incorporation / radiometric | >0.1 µM
Cc1cc(C2CC2)cc(Cl)c1-n1c(Br)nnc1SCC(=O)Nc1ccc(S(N)(=O)=O)cc1Cl | IC50 | - | - | nucleotide incorporation / radiometric | <0.05 µM
CC(C)(C#Cc1ccc(NC(=O)CSc2nnnn2-c2cc(C3CC3)cc(C(F)(F)F)c2Cl)c(Cl)c1)C(=O)O | IC50 | - | WT | PicoGreen / fluorescence | <1 µM
Cc1cc(C2CC2)c2ccccc2c1-n1c(Br)nnc1SCC(=O)Nc1ccc(S(=O)(=O)O)cc1Cl | IC50 | RT-Y181C | - | nucleotide incorporation / radiometric | <0.05 µM
CCN1c2ncccc2NC(=O)c2cc(CCOc3ccc(-c4cc(OC)c(O)c(C(=O)O)c4)cc3C)cnc21 | IC50 | - | IIIB | nucleotide incorporation / radiometric | <0.05 µM
c1coc(-c2nnc3c4ccccc4c(N4CCc5ccccc5C4)nn23)c1 | IC90 | - | IIIB | RT activity / fluorescence | 1.17 µM
CCc1ccc(-n2c(CF)nnc2SCC(=O)Nc2ccc(S(=O)(=O)NC)cc2Cl)c2ccccc12 | IC50 | RT-Y181C | - | nucleotide incorporation / radiometric | <0.05 µM
CCN1c2ncc(CCOc3ccc(-c4ccc[n+]([O-])c4C)cc3C)cc2C(=O)N(C)c2cccnc21 | IC50 | RT-K103N Y181C | IIIB | nucleotide incorporation / radiometric | <0.05 µM
Cc1ccc2c(c1)CCN(c1nn3c(C4CC4)nnc3c3ccccc13)C2 | IC50 | - | 98US_MSC5016 | RT activity / fluorescence | 0.55 µM
CCOC(=O)CCNC(=O)c1ccc(NC(=O)CSc2nnc(Br)n2-c2ccc(C3CC3)c3ccccc23)c(Cl)c1 | IC50 | RT-Y188L | - | nucleotide incorporation / radiometric | <0.05 µM
COC(=O)Cc1cccc(-c2ccc(NC(=O)CSc3nnnn3-c3ccc(C)cc3Cl)c(Cl)c2)c1 | IC50 | - | WT | PicoGreen / fluorescence | <1 µM
CCOC(=O)c1csc(-c2ccc(OCCc3cnc4c(c3)C(=O)N(C)c3cccnc3N4CC)c(C)c2)n1 | IC50 | RT-K103N Y181C | IIIB | nucleotide incorporation / radiometric | >0.1 µM
CC(C)(C)c1cc(Cl)c(-n2nnnc2SCC(=O)Nc2ccc(-c3ccc(OCC(=O)O)cc3)cc2Cl)c(Cl)c1 | IC50 | - | WT | PicoGreen / fluorescence | <1 µM
CCc1cc(C2CC2)ccc1-n1c(Br)nnc1SCC(=O)Nc1ccc(C(=O)O)cc1Cl | IC50 | RT-Y188L | - | nucleotide incorporation / radiometric | >0.1 µM
CC(C)(C)c1ccc(-n2nnnc2SCC(=O)Nc2ccc(NC(=O)Nc3ccccc3)cc2Cl)c(Cl)c1 | IC50 | RT-K103 Y181C | - | PicoGreen / fluorescence | <1 µM
CCN1c2ncc(CCOc3ccc(-c4ccccc4)cc3)cc2C(=O)N(C)c2cccnc21 | IC50 | RT-K103N Y181C | IIIB | nucleotide incorporation / radiometric | 0.05–0.1 µM
Cc1cc(S(N)(=O)=O)ccc1NC(=O)CSc1nnc(Br)n1-c1ccc(C2CC2)c2ccccc12 | IC50 | - | - | nucleotide incorporation / radiometric | <0.05 µM
CC(C)(C#Cc1ccc(NC(=O)CSc2nnnn2-c2ccc(C(C)(C)C)cc2Cl)c(Cl)c1)C(=O)O | IC50 | RT-K103 Y181C | - | PicoGreen / fluorescence | <1 µM
O=C(CSc1nnc(Br)n1-c1ccc(C2CC2)cc1C(F)(F)F)Nc1ccc(C(=O)O)cc1Cl | IC50 | RT-Y181C | - | nucleotide incorporation / radiometric | 0.05–0.1 µM
CN1CCN(NS(=O)(=O)c2ccc(NC(=O)CSc3nnnn3-c3ccc(C4CC4)cc3Cl)c(Cl)c2)CC1 | IC50 | - | WT | PicoGreen / fluorescence | <1 µM
CC(Sc1nnc(Br)n1-c1ccc(C2CC2)c2ccccc12)C(=O)Nc1ccc(S(N)(=O)=O)cc1Cl | IC50 | RT-Y181C | - | nucleotide incorporation / radiometric | 0.05–0.1 µM
CCc1cc(CCc2nc3ccccc3o2)c(=O)[nH]c1C | IC50 | RT-Y181S | - | nucleotide incorporation | 5.967 µM
COc1ccc2c(C)ccc(-n3c(Br)nnc3SCC(=O)Nc3ccc(S(N)(=O)=O)cc3Br)c2c1 | IC50 | - | - | nucleotide incorporation / radiometric | <0.05 µM
CC(C)(C)c1ccc(-n2nnnc2SCC(=O)Nc2ccc(OCC(=O)NCc3ccc(O)c(O)c3)cc2Cl)c(Cl)c1 | IC50 | - | WT | PicoGreen / fluorescence | <1 µM
CCN1c2ncc(CCOc3ccc(-c4cccnc4)cc3C)cc2C(=O)N(C)c2cccnc21 | IC50 | RT-K103N Y181C | IIIB | nucleotide incorporation / radiometric | <0.05 µM
CC(C)(C)c1ccc(-n2nnnc2SCC(=O)Nc2ccc(NC(=O)Cc3cccc([N+](=O)[O-])c3)cc2Cl)c(Cl)c1 | IC50 | RT-K103 Y181C | - | PicoGreen / fluorescence | <1 µM
CCc1ccc(-n2c(Br)nnc2SCC(=O)Nc2ccc(C(=O)O)cc2Br)c2ccccc12 | IC50 | RT-Y188L | - | nucleotide incorporation / radiometric | 0.05–0.1 µM
COC(=O)/C=C(/C)c1ccc(NC(=O)CSc2nnnn2-c2ccc(C3CC3)cc2Cl)c(Cl)c1 | IC50 | RT-K103 Y181C | - | PicoGreen / fluorescence | <1 µM
NS(=O)(=O)c1ccc(NC(=O)CSc2nnc(Br)n2-c2ccc(C3CC3)cc2)c(Cl)c1 | IC50 | RT-Y181C | - | nucleotide incorporation / radiometric | <0.05 µM
CC(C)(C)c1ccc(-n2nnnc2SCC(=O)Nc2ccc(NC(=O)Cc3ccncc3)cc2Cl)c(Cl)c1 | IC50 | - | WT | PicoGreen / fluorescence | <1 µM
CC(C)C[C@H](NC(=O)c1ccc(NC(=O)CSc2nnc(Br)n2-c2ccc(C3CC3)c3ccccc23)c(Cl)c1)C(=O)O | IC50 | RT-Y188L | - | nucleotide incorporation / radiometric | 0.05–0.1 µM
CCN1c2ncc(CCOc3ccc(-c4ccc(C(=O)O)o4)cc3C)cc2C(=O)N(C)c2cccnc21 | IC50 | - | IIIB | nucleotide incorporation / radiometric | <0.05 µM
C=C1c2cc(CCOc3ccc(NS(C)(=O)=O)c4ccccc34)cnc2N(CC)c2ncccc2N1C | IC50 | RT-Y188L | - | nucleotide incorporation / radiometric | >1 µM
CC(C)(C#Cc1ccc(NC(=O)CSc2nnnn2-c2cc(C(F)(F)F)ccc2Cl)c(Cl)c1)C(=O)O | IC50 | RT-K103 Y181C | - | PicoGreen / fluorescence | <1 µM
CCc1ccc(-n2c(Br)nnc2SCC(=O)Nc2ccc(S(N)(=O)=O)cc2Br)c2ccccc12 | IC50 | RT-Y181C | - | nucleotide incorporation / radiometric | <0.05 µM
Cc1nnc2c3ccccc3c(N3CCc4ccc(C#N)cc4C3)nn12 | IC50 | - | IIIB | RT activity / fluorescence | 4.39 µM
CCN1c2ncc(CCOc3ccc(/C=C(\C)C(=O)O)c4ccccc34)cc2C(=O)Nc2c(C)cc(Cl)nc21 | IC50 | RT-K103N Y181C | - | nucleotide incorporation / radiometric | 0.1–1 µM
CCc1ccc(-n2c(SCC(=O)Nc3ccc(S(N)(=O)=O)cc3Cl)nnc2C(F)F)c2c1CCCC2 | IC50 | RT-Y188L | - | nucleotide incorporation / radiometric | >0.1 µM
CCN1c2ncc(CCOc3cccc4c3ccc[n+]4[O-])cc2C(=O)Nc2c(C)cc(Cl)nc21 | IC50 | RT-K103N L100I | - | nucleotide incorporation / radiometric | 0.027 µM
CCc1ccc(-n2c(Br)nnc2SCC(=O)Nc2ccc(C(=O)N[C@H](C(=O)OC)C(C)C)cc2Cl)c2ccccc12 | IC50 | - | - | nucleotide incorporation / radiometric | 0.05–0.1 µM
Cc1nnc2c3ccccc3c(N3CCc4ccccc4C3)nn12 | IC50 | - | IIIB | RT activity / fluorescence | 0.14 µM
CCN1c2ncc(CCOc3ccc(CCC(=O)O)c4ccccc34)cc2C(=O)Nc2c(C)cc(Cl)nc21 | IC50 | RT-K103N Y181C | - | nucleotide incorporation / radiometric | 0.1–1 µM
CCN1c2ncc(CCOc3ccc(C(=O)NS(C)(=O)=O)cc3C)cc2C(=O)N(C)c2cccnc21 | IC50 | - | IIIB | nucleotide incorporation / radiometric | <0.05 µM
CCN1c2ncc(CCOc3ccc(/C=C(\C)C(=O)O)c4ccccc34)cc2C(=O)N(C)c2cccnc21 | IC50 | - | WT | nucleotide incorporation / radiometric | <0.1 µM
CCc1ccc(-n2c(Br)nnc2SCC(=O)Nc2ccc(C(=O)O)cc2Cl)c2ccccc12 | IC50 | RT-Y188L | - | nucleotide incorporation / radiometric | >0.1 µM
NS(=O)(=O)c1ccc(NC(=O)CSc2nnc(Br)n2-c2c(Cl)cc(C3CCC3)c3ccccc23)c(Cl)c1 | IC50 | RT-Y188L | - | nucleotide incorporation / radiometric | 0.05–0.1 µM
CC(C)(C)c1ccc(-n2nnnc2SCC(=O)Nc2ccc(C#CCCCOC(N)=O)cc2Cl)c(Cl)c1 | IC50 | - | WT | PicoGreen / fluorescence | <1 µM
CCc1ccc(-n2c(Br)nnc2SCC(=O)Nc2ccc(C(=O)N[C@@H](CO)C(=O)OC)cc2Cl)c2ccccc12 | IC50 | RT-Y188L | - | nucleotide incorporation / radiometric | <0.05 µM
CC(C)(C#Cc1ccc(NC(=O)CSc2nnc(C(F)(F)F)n2-c2ccc(C3CC3)cc2Cl)c(Cl)c1)NC(=O)c1cc[n+]([O-])cc1 | IC50 | - | WT | PicoGreen / fluorescence | <1 µM
CCN1c2ncc(CCOc3ccc(C(=O)O)c4ccccc34)cc2C(=O)N(C)c2ccc(C)nc21 | IC50 | RT-Y188L | - | nucleotide incorporation / radiometric | >1 µM
Cc1ccc(-n2c(C)cnc2SCC(=O)Nc2ccc(-c3ccc(CC(=O)O)cc3)cc2Cl)c(Cl)c1 | IC50 | - | WT | PicoGreen / fluorescence | <1 µM
Cc1cc(S(N)(=O)=O)ccc1NC(=O)CSc1nnc(Br)n1-c1ccc(C2CCC2)c2ccccc12 | IC50 | RT-Y181C | - | nucleotide incorporation / radiometric | <0.05 µM
CNCCOC(=O)COC(C)(C)C#Cc1ccc(NC(=O)CSc2nnnn2-c2ccc(C(C)(C)C)cc2Cl)c(Cl)c1 | IC50 | RT-K103 Y181C | - | PicoGreen / fluorescence | <1 µM
O=C(O)CCNC(=O)c1ccc(NC(=O)CSc2nnc(Br)n2-c2ccc(C3CC3)c3ccccc23)c(Cl)c1 | IC50 | - | - | nucleotide incorporation / radiometric | <0.05 µM
CC(C)(C#Cc1ccc(NC(=O)CSc2nnnn2-c2cc(C(F)(F)F)cc(C3CC3)c2Cl)c(Cl)c1)OCCN1CCNCC1 | IC50 | RT-K103 Y181C | - | PicoGreen / fluorescence | <1 µM
CCc1ccc(-n2c(Br)nnc2SCC(=O)Nc2ccc(C(=O)N[C@H](C(=O)OC)C(C)C)cc2Cl)c2ccccc12 | IC50 | - | - | nucleotide incorporation / radiometric | 0.05–0.1 µM
CC(C)(C#Cc1ccc(NC(=O)CSc2nnnn2-c2ccc(C3CC3)cc2Cl)c(Cl)c1)NC(=O)c1cnccn1 | IC50 | - | WT | PicoGreen / fluorescence | <1 µM
CCN1c2ncc(CCOc3ccc(NS(C)(=O)=O)c4ccccc34)cc2C(=O)N(C)c2ccc(F)nc21 | IC50 | RT-V106A | - | nucleotide incorporation / radiometric | 0.1–1 µM

Repeating the final 4 entries:

| SMILES | read-out | mutations | strain | method | result |
|---|---|---|---|---|---|
| CC(C)(C#Cc1ccc(NC(=O)CSc2nnnn2-c2cc(C(F)(F)F)cc(C3CC3)c2Cl)c(Cl)c1)OCCN1CCNCC1 | IC50 | RT-K103 Y181C | - | PicoGreen / fluorescence | <1 µM |
| CCc1ccc(-n2c(Br)nnc2SCC(=O)Nc2ccc(C(=O)N[C@H](C(=O)OC)C(C)C)cc2Cl)c2ccccc12 | IC50 | - | - | nucleotide incorporation / radiometric | 0.05–0.1 µM |
| CC(C)(C#Cc1ccc(NC(=O)CSc2nnnn2-c2ccc(C3CC3)cc2Cl)c(Cl)c1)NC(=O)c1cnccn1 | IC50 | - | WT | PicoGreen / fluorescence | <1 µM |
| CCN1c2ncc(CCOc3ccc(NS(C)(=O)=O)c4ccccc34)cc2C(=O)N(C)c2ccc(F)nc21 | IC50 | RT-V106A | - | nucleotide incorporation / radiometric | 0.1–1 µM |